Taken from: PubChem BioAssay AID1259414 (Drosophila RNAi Screening Center, 2018)

- Aim: 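Genome-wide screen for host control of endosymbiont load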 (primary screen)
- Cell system: Drosophila JW18 cells infected with Wolbachia
- Reagent: long dsRNA against Drosophila genes, 0.25 µg dsRNA per well of a 384-well plate
- Duration: 5 days
- Conditions: cells persistently infected with Wolbachia before knock-down; no added drug
- Measured: 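Imaged fluorescence in situ signal for Wolbachia 23S rRNA per DAPI-counted host cell, given as a robust z-score within each plate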
- Reading the numbers: Wolbachia per cell robust z: higher = more Wolbachia per host cell than the plate typical
- Active means: 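Active if absolute robust z reaches 1.5 in two or more of three replicates, leaving out multi- or no-target dsRNAs, genes unexpressed in JW18 and A1 wells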
The deposit covers about 24,000 reagents; below is an unselected part of those that have a named target and a result. In the full data, about 1,210 (5%) are marked active. 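Inactive calls also include excluded dsRNAs with several or no targets, genes unexpressed in JW18, and well A1, regardless of score.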 Entries without a mark were called inactive.

predicted target	amplicon	Wolbachia per cell robust z, rep 1	Wolbachia per cell robust z, rep 2	Wolbachia per cell robust z, rep 3
CG15255	DRSC01869	-1.06	0.0975	0.0723
CG15255	DRSC29808	-3.71	0.762	-4.02
CG4631	DRSC02766	-1.92	0.445	0.901
CG4631	DRSC22194	0.602	0.731	1
Exo84	DRSC15965	2.02 (active)	-0.348	2
CG6000	DRSC15938	-0.423	0.48	0.152
ref(2)P	DRSC03601	-0.135	0.599	0.336
ref(2)P	DRSC40817	-0.821	-0.309	-1.77
Tps1	DRSC00269	-1.68	0.486	-0.762
Tps1	DRSC27331	-1.06	-0.411	1.64
CG3687	DRSC06850	-0.152	-1.7	-0.295
CG3687	DRSC29588	0.8	-0.203	0.00654
CG3687	DRSC39030	-0.869	-1.01	-3.42
Rme-8	DRSC07054	-1.36	1.81	-0.00152
CG4238	DRSC00644	0.114	-0.882	0.0311
robo3	DRSC00374	1.31	0.996	0.27
robo3	DRSC00684	0.158	0.487	0.186
CG16972	DRSC02550	-0.36	-1.57	-0.894
Fs	DRSC06258	-2.1	0.151	0.0216
Fs	DRSC06259	-4.04	0.637	0.9
Fs	DRSC23507	-0.871	-0.82	-0.0207
mei-P26	DRSC23049	-2.35	0.0835	0.594
CG17328	DRSC01927	-2.64 (active)	-1.91	-1.01
CG17328	DRSC22448	1.39	1.37	0.616
CG17328	DRSC25397	-1.31	-0.0531	-0.57
CG16734	DRSC15143	1.28	1.47	-0.122
Or2a	DRSC18690	0.797	-1.29	-0.185
Obp73a	DRSC09907	-0.0796	1.1	-9.25
Surf6	DRSC15588	0.52	0.0239	0.948
Surf6	DRSC29437	-1.7 (active)	-0.415	-7.43
Surf6	DRSC41271	-1.56	-0.0137	-0.427
CG32248	DRSC08102	0.00745	-0.37	-0.715
CG32248	DRSC25738	0.734	-0.116	0.0217
Dnai2	DRSC10575	0.575	0.843	-0.114
Gr23a	DRSC27488	1.22	-1.02	-0.491
CG12420	DRSC14514	0.301	-0.0358	-1.84
Prosbeta4	DRSC02603	1.8 (active)	0.739	3.1
CR42532	DRSC06713	-2.96	-0.822	-0.63
ppk17	DRSC02252	-0.408	-1.83	-0.0252
GrlHz	DRSC04424	-1.79 (active)	-0.0772	-3.38
Phf5a	DRSC03261	0.646	1.91	0.0815
CG13436	DRSC06396	-0.412	0.703	0.94
Cdc27	DRSC11112	2.42 (active)	2.67	4.39
Cdc27	DRSC23438	4.63 (active)	2.65	2.16
Cdc27	DRSC38968	5.79 (active)	3.35	5.28
TyrRS-m	DRSC04286	0.783	-1.61	-0.684

Part of the list above, reformatted:
predicted target | amplicon | Wolbachia per cell robust z, rep 1 | Wolbachia per cell robust z, rep 2 | Wolbachia per cell robust z, rep 3
Prosbeta4 | DRSC02603 | 1.8 (active) | 0.739 | 3.1
CR42532 | DRSC06713 | -2.96 | -0.822 | -0.63
